Test results reported in paper PMC4100338 (Frontiers in Chemistry, 2014).

Sequences of proteins named here, by UniProt entry; tags and fusion partners are left off. A change or cut given only in a name is not applied to a line headed by its entry.
UniProt P37967: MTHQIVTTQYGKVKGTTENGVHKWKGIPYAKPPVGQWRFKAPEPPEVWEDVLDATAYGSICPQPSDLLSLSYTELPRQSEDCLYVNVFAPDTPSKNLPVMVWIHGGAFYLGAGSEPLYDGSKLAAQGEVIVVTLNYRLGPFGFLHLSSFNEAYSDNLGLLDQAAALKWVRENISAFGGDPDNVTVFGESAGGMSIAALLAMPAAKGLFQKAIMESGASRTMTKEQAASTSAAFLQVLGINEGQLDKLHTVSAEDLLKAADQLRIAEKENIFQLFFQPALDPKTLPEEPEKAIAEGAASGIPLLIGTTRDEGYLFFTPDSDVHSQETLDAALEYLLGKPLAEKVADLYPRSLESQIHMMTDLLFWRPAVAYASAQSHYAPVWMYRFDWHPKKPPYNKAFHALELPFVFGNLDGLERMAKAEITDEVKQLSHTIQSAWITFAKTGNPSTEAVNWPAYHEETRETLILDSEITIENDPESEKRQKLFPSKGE

Target: pNBE (Bacillus subtilis, UniProt P37967)
Assay: biochemical

With `CCOP(=O)(OCC)Oc1ccc([N+](=O)[O-])cc1` [paraoxon, diethyl p-nitrophenylphosphate] the IC50 (IC50 (upper limit)) was ≤ 0.5 nM and the IC50 (observed IC50) was 0.37 nM.
